Legend:
Aspergillus niger = test: Minimum inhibitory concentration against Aspergillus niger
[1] = Minimum inhibitory concentration against Candida albicans; assay type: functional

SMILES	-Log MIC (Aspergillus niger) [µg ml-1]	-Log MIC [1] [µg ml-1]
CCOC(=O)C1(C(=O)OC)C(Cl)C(=O)N1N(c1c(O)ccc2c(P(Cl)Cl)pc(C(=O)O)n12)[N+](=O)[O-] (stereo unspecified)	4.03	4.04
CC(=O)C1(C(=O)Nc2ccccc2)C(Cl)C(=O)N1N(c1c(O)ccc2c(P(Cl)Cl)pc(-c3ccccc3)n12)[N+](=O)[O-] (stereo unspecified)	4.77	4.97
CC(=O)C1(C(C)=O)C(Cl)C(=O)N1N(c1c(O)ccc2c(P(Cl)Cl)pc(-c3ccccc3)n12)[N+](=O)[O-] (stereo unspecified)	4.18	4.19
CCOC(=O)C1(C(C)=O)C(Cl)C(=O)N1N(c1c(O)ccc2c(P(Cl)Cl)pc(-c3ccccc3)n12)[N+](=O)[O-] (stereo unspecified)	4.46	4.53
CCOC(=O)C1(C(=O)OCC)C(Cl)C(=O)N1N(c1c(O)ccc2c(P(Cl)Cl)pc(-c3ccccc3)n12)[N+](=O)[O-] (stereo unspecified)	4.44	4.5
CC(=O)C1(C(=O)Nc2ccccc2)C(Cl)C(=O)N1N(c1c(O)ccc2c(P(Cl)Cl)pc(C(=O)O)n12)[N+](=O)[O-] (stereo unspecified)	4.34	4.37
CC(=O)C1(C(=O)c2ccccc2)C(Cl)C(=O)N1N(c1c(O)ccc2c(P(Cl)Cl)pc(C(=O)O)n12)[N+](=O)[O-] (stereo unspecified)	4.25	4.26
COC(=O)C1(C(=O)OC)C(Cl)C(=O)N1N(c1c(O)ccc2c(P(Cl)Cl)pc(C(=O)O)n12)[N+](=O)[O-] (stereo unspecified)	4.02	4.04
CCOC(=O)C1(C(=O)CBr)C(Cl)C(=O)N1N(c1c(O)ccc2c(P(Cl)Cl)pc(-c3ccccc3)n12)[N+](=O)[O-] (stereo unspecified)	4.58	4.63
CCOC(=O)C1(C(=O)C#N)C(Cl)C(=O)N1N(c1c(O)ccc2c(P(Cl)Cl)pc(C(=O)O)n12)[N+](=O)[O-] (stereo unspecified)	4.07	4.08
COC(=O)C1(C(C)=O)C(Cl)C(=O)N1N(c1c(O)ccc2c(P(Cl)Cl)pc(C(=O)O)n12)[N+](=O)[O-] (stereo unspecified)	4	4.02
CC(=O)C1(C(=O)c2ccccc2)C(Cl)C(=O)N1N(c1c(O)ccc2c(P(Cl)Cl)pc(-c3ccccc3)n12)[N+](=O)[O-] (stereo unspecified)	4.69	4.85
CCOC(=O)C1(C(=O)C#N)C(Cl)C(=O)N1N(c1c(O)ccc2c(P(Cl)Cl)pc(-c3ccccc3)n12)[N+](=O)[O-] (stereo unspecified)	4.37	4.41
CCOC(=O)C1(C(=O)CBr)C(Cl)C(=O)N1N(c1c(O)ccc2c(P(Cl)Cl)pc(C(=O)O)n12)[N+](=O)[O-] (stereo unspecified)	4.17	4.19
COC(=O)C1(C(C)=O)C(Cl)C(=O)N1N(c1c(O)ccc2c(P(Cl)Cl)pc(-c3ccccc3)n12)[N+](=O)[O-] (stereo unspecified)	4.25	4.27
CCOC(=O)C1(C(=O)OCC)C(Cl)C(=O)N1N(c1c(O)ccc2c(P(Cl)Cl)pc(C(=O)O)n12)[N+](=O)[O-] (stereo unspecified)	4.11	4.13
O=C(O)c1pc(P(Cl)Cl)c2ccc(O)c(N(N3C(=O)C(Cl)C3(C(=O)c3ccccc3)C(=O)c3ccccc3)[N+](=O)[O-])n12 (stereo unspecified)	4.65	4.75
CC(=O)C1(C(C)=O)C(Cl)C(=O)N1N(c1c(O)ccc2c(P(Cl)Cl)pc(C(=O)O)n12)[N+](=O)[O-] (stereo unspecified)	3.97	4.01

From ChEMBL document CHEMBL1141981, “Studies on synthesis and evaluation of quantitative structure-activity relationship of 5-[(3'-chloro-4',4'-disubstituted-2-oxoazetidinyl)(N-nitro)amino]-6-hydroxy-3-alkyl/aryl[1,3]azaphospholo[1,5-a]pyridin-1-yl-phosphorus dichlorides” (2005)
